# Deep mutational scan of the Zika virus protease

Reference: Ni et al. 2025, doi:10.1038/s41467-025-63602-z.

The scanned region of Zika virus MR766 is shown below (positions 1-308): NS2B is 2-131, NS3 begins at position 132.
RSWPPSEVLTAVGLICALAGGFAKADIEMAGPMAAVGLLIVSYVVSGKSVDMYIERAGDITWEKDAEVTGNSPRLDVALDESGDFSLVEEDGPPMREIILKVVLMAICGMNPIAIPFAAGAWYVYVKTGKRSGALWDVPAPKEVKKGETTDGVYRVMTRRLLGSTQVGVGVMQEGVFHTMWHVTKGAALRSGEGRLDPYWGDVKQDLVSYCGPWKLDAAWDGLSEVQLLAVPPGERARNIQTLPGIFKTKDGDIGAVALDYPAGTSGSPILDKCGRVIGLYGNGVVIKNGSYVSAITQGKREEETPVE

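Libraries of single mutants were passaged as virus pools on Huh-7.5 cells. Sequencing of three replicate libraries (two for positions 207-308) was averaged into one effect per change.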

Values are log2 effects on growth: 0 is wild type, lower means poorer growth. Each entry names the wild-type residue, its position and the residue put in its place. The region was split into three libraries (1-103, 104-206, 207-308).

| # | change | log2 effect |
|---|---|---|
| 1 | I240M | -1.55 |
| 2 | K288H | -1.59 |
| 3 | W214E | -7.49 |
| 4 | M157H | -2.72 |
| 5 | G133P | -6.71 |
| 6 | P5S | -0.77 |
| 7 | I113W | -3.20 |
| 8 | R96W | -3.16 |
| 9 | D151R | -6.84 |
| 10 | A78* | -7.32 |
| 11 | G152Y | -5.83 |
| 12 | R236P | 1.15 |
| 13 | P244I | -4.73 |
| 14 | S268D | -4.87 |
| 15 | L207P | -7.89 |
| 16 | T305G | -1.01 |
| 17 | F247I | -5.84 |
| 18 | D65F | -3.66 |
| 19 | V126F | -1.12 |
| 20 | E143* | -3.46 |
| 21 | Y281C | -5.59 |
| 22 | N239P | -6.66 |
| 23 | K130Q | -5.96 |
| 24 | R56N | -4.71 |
| 25 | A263D | -5.98 |
| 26 | K215F | -6.51 |
| 27 | T10P | -6.39 |
| 28 | N239* | -7.16 |
| 29 | T165L | -1.28 |
| 30 | V183* | -6.77 |
| 31 | V77C | -5.85 |
| 32 | K142Y | -4.19 |
| 33 | K185L | -5.33 |
| 34 | V293M | -4.71 |
| 35 | P5K | -6.53 |
| 36 | W122G | -6.42 |
| 37 | T150P | -6.26 |
| 38 | I54Q | -6.49 |
| 39 | G31N | -5.64 |
| 40 | Y53R | -6.01 |
| 41 | S291M | -1.94 |
| 42 | D272F | -4.31 |
| 43 | F117C | -1.74 |
| 44 | V231H | -3.42 |
| 45 | S2C | -3.72 |
| 46 | G13P | -7.03 |
| 47 | T305I | -1.87 |
| 48 | R56H | -1.09 |
| 49 | T158S | 1.00 |
| 50 | P112C | -4.75 |
| 51 | K130G | -6.47 |
| 52 | M105Q | -6.10 |
| 53 | W136Q | -6.67 |
| 54 | V12M | -3.01 |
| 55 | R236C | 2.10 |
| 56 | Y210P | -7.33 |
| 57 | Q241W | -6.10 |
| 58 | V171W | -5.17 |
| 59 | V293E | -4.80 |
| 60 | S82Y | -2.52 |
| 61 | K101H | -6.12 |
| 62 | A57F | -5.51 |
| 63 | M52L | -1.15 |
| 64 | G120* | -7.32 |
| 65 | A187E | -5.42 |
| 66 | D91W | -3.61 |
| 67 | L207E | -7.24 |
| 68 | G255C | -6.54 |
| 69 | P306A | -0.14 |
| 70 | E225L | -7.51 |
| 71 | Q241H | -7.11 |
| 72 | E28K | -1.73 |
| 73 | L9W | -3.49 |
| 74 | T297E | -3.74 |
| 75 | Y154I | -5.13 |
| 76 | R1* | -9.48 |
| 77 | S46W | -6.14 |
| 78 | E90D | 1.24 |
| 79 | A78S | -0.43 |
| 80 | A187F | -5.16 |
| 81 | G170I | -5.12 |
| 82 | P141L | -4.93 |
| 83 | T179K | -5.64 |
| 84 | I270Y | -3.16 |
| 85 | E143K | -3.54 |
| 86 | G192A | -2.84 |
| 87 | K24Q | -1.32 |
| 88 | Y261M | -0.66 |
| 89 | M110G | -2.91 |
| 90 | M29K | -3.89 |
| 91 | G234T | -4.80 |
| 92 | L189K | -5.75 |
| 93 | Y154T | -6.60 |
| 94 | P112S | -5.42 |
| 95 | E304P | -0.51 |
| 96 | V45T | -6.49 |
| 97 | G37C | -2.89 |
| 98 | E174A | -4.61 |
| 99 | E303R | -2.66 |
| 100 | P213I | -6.48 |
| 101 | I40F | -0.13 |
| 102 | W181P | -5.93 |

Excerpt, the final 10 entries:

- Y154T: -6.60
- P112S: -5.42
- E304P: -0.51
- V45T: -6.49
- G37C: -2.89
- E174A: -4.61
- E303R: -2.66
- P213I: -6.48
- I40F: -0.13
- W181P: -5.93

Position 1 still belongs to NS2A. In the paper, -1 or higher counts as tolerated. Stop codons (*) centre on -7 and mark the level of dead virus. Six mutants with high scores were retested singly and none clearly outgrew wild type, so positive values are not proof of better growth.